Anti-infective test results gathered from many reports (values: NIAID ChemDB through PubChem).

Shared fields: host cell toxicity; cells: MT-4; endpoint: CC50

Blank or dashed fields: not listed here. Conditions beyond the fields shown may differ between rows. CCn is the concentration with n% toxicity to the cells.

SMILES | read by | value
CSCC1NCCn2c1nc(C(=O)NCc1ccc(F)cc1)c(O)c2=O | microscopy | >1 µM
C=C1CN(S(=O)(=O)c2ccc(C)cc2)CCCN(CC2CC2)CCCN(S(=O)(=O)c2ccc(C)cc2)C1 | - | 36.1 µM
C#CCOCn1c(Cc2cc(C(F)(F)F)cc(C(F)(F)F)c2)c(CC)c(=O)[nH]c1=O | - | >100 µM
CC(C)c1c(Cl)nc(Nc2ccc(C#N)cc2)nc1Oc1ccc2cc(C#N)ccc2c1 | MTT | 284 µM
COc1cccc(N2CCN(CN3C(=O)/C(=N\c4ncc(Cc5cc(OC)c(OC)c(OC)c5)c(N)n4)c4cc(C)ccc43)CC2)c1 | - | 32.1 µM
CCOCn1c(C(=O)c2cccc(C#N)c2)c(CC)c(=O)[nH]c1=O | - | >100 µM
CCN1C/C(=C\c2ccc([N+](=O)[O-])c(O)c2)C(=O)/C(=C/c2ccc([N+](=O)[O-])c(O)c2)C1 | MTT | 4 µM
Cc1nnc(CN2CCn3c(nc(C(=O)NCc4ccc(F)cc4)c(O)c3=O)C2(C)C)o1 | microscopy | >1 µM
N#Cc1ccc(Nc2nccc(Oc3cc4ccc(C#N)cc4cc3Br)n2)cc1 | MTT | >56.53 µM
Cc1nc(CN2CCn3c(nc(C(=O)NCc4ccc(F)cc4)c(O)c3=O)C2(C)C)cs1 | microscopy | >1 µM
COc1cc(Cc2cnc(/N=C3\C(=O)N(CN4CCN(c5ccc([N+](=O)[O-])cc5)CC4)c4ccc(C)cc43)nc2N)cc(OC)c1OC | - | 47.96 µM
Cc1ccc(/C=C/C(=O)c2ccc(NC(=O)c3ccccc3Nc3cccc(C)c3C)cc2)cc1 | MTT / absorbance | 76.9 µM
COc1ccc([C@H]2C[C@H]2CSc2nc([C@H](C)c3c(F)cccc3F)c(C)c(=O)[nH]2)cc1 | MTT | 14.64 µM
Cc1cccc(Nc2ccccc2C(=O)Nc2ccc(-c3cc(-c4ccc(N(C)C)cc4)nc(=S)[nH]3)cc2)c1C | MTT / absorbance | >7.02 µM
Cc1c(Cl)nc(Nc2ccc(C#N)cc2)nc1Oc1ccc2ccccc2c1 | MTT | 221 µM
CC(C)c1c(OC#CC2CC2)c2cc(Cl)ccc2[nH]c1=O | - | 60 µM
CCOCn1c(Cc2cc(F)ccc2F)c(CC)c(=O)[nH]c1=O | - | >100 µM
COc1cc(Cc2cnc(/N=C3\C(=O)N(CN4CCNCC4)c4ccc(C)cc43)nc2N)cc(OC)c1OC | - | 94.2 µM
C[C@@H](NS(=O)(=O)c1ccc(Cl)cc1)C(=O)NN | - | 113 µg/mL
C=CCOCn1c(Cc2cccc(F)c2)c(CC)c(=O)[nH]c1=O | - | >100 µM
CCc1nc([N+](=O)[O-])c(N2CCN(C(=O)CSC)CC2)n1Cc1ccccc1.c1ccc2ccccc2c1 | - | 12.69 µg/mL
C#CCOCn1c(Cc2c(F)c(F)cc(F)c2F)c(CC)c(=O)[nH]c1=O | - | 5 µM
CCOC(NC(=S)Nc1ccccn1)C(=O)c1ccccc1Cl | - | >200 µM
C=C1CN(S(=O)(=O)c2ccc(C)cc2)CCCN(Cc2ccccn2)CCCN(S(=O)(=O)c2ccc(C)cc2)C1 | - | >75 µM
COc1cc(Cc2cnc(/N=C3\C(=O)N(CN4CCN(c5ccccc5)CC4)c4ccc(C)cc43)nc2N)cc(OC)c1OC | - | 116.1 µM
C=C(C)[C@@H]1CC[C@]2(C(=O)O)CC[C@]3(C)[C@H](CC[C@@H]4[C@@]5(C)CC[C@H](OC(=O)CCC(=O)OC[C@H]6OC(n7cc(C)c(=O)[nH]c7=O)C[C@@H]6N=[N+]=[N-])C(C)(C)[C@@H]5CC[C@]43C)[C@@H]12 | - | >50 µM
CCOCn1c(C(=O)c2cccc(C#N)c2)c(CC)c(OC)nc1=O | - | >100 µM
COc1ccc(C2CC2CSc2nc(C(C)c3c(F)cccc3F)c(C)c(=O)[nH]2)cc1 | MTT | 37.3 µM
Cc1cccc(Nc2ccccc2C(=O)Nc2ccc(-c3cc(-c4ccccc4)nc(=S)[nH]3)cc2)c1C | MTT / absorbance | >13.9 µM
C=CCOCn1c(C(F)c2cccc(C#N)c2)c(CC)c(=O)[nH]c1=O | - | >100 µM
CNc1cc(Oc2ccc3cc(Br)ccc3c2)nc(Nc2ccc(C#N)cc2)n1 | MTT | 182 µM
Cc1cc(OCC(=O)N[C@@H](Cc2ccccc2)[C@H](O)CN(CC(C)C)S(=O)(=O)c2ccc3nc[nH]c3c2)no1 | - | >100 µM
CN(C)CC1c2nc(C(=O)NCc3ccc(F)cc3)c(O)c(=O)n2CCN1S(C)(=O)=O | microscopy | >1 µM
CC(C)CN(C[C@@H](O)[C@H](Cc1ccccc1)NC(=O)O[C@H]1CO[C@H]2OCC[C@H]21)S(=O)(=O)c1ccc2nc(NC(=O)OCCN(C)C)[nH]c2c1 | - | >100 µM
CNc1ccc2c(COc3ccc(Cl)c(Oc4cc(Cl)cc(C#N)c4)c3)[nH]nc2n1 | microscopy | >20 µM
CC(=O)Nc1nc2ccc(S(=O)(=O)N(CC(C)C)C[C@@H](O)[C@H](Cc3ccccc3)NC(=O)OC3COC4OCCC34)cc2[nH]1 | - | >100 µM
N#Cc1cc(Cl)cc(Oc2cc(OCc3nc4ccccc4s3)ccc2Cl)c1 | microscopy | >20 µM
CCOC(NC(=S)Nc1ccccn1)C(=O)c1ccc(Cl)cc1 | - | 210 µM
N#Cc1ccc(Nc2nccc(Oc3ccc4cc(C#N)ccc4c3)n2)cc1 | MTT | >68.8 µM
COc1ccc([C@@H]2C[C@@H]2CSc2nc([C@H](C)c3c(F)cccc3F)c(C)c(=O)[nH]2)cc1 | MTT | >56.25 µM
C=C(C)[C@@H]1CC[C@]2(C(=O)OC[C@@H]3OC(n4ccc(N(C(=O)OCC)C(=O)OCC)nc4=O)CS3)CC[C@]3(C)[C@H](CC[C@@H]4[C@@]5(C)CC[C@H](O)C(C)(C)[C@@H]5CC[C@]43C)[C@@H]12 | - | >50 µM
OC(/C=C/c1ccc(Cl)c(Cl)c1)/C=C/c1ccc(Cl)c(Cl)c1 | MTT | 121 µM
CCOCn1c(Cc2cc(C(F)(F)F)cc(C(F)(F)F)c2)c(CC)c(=O)[nH]c1=O | - | >100 µM
CCc1nc([N+](=O)[O-])c(N2CCN(C(=O)CCl)CC2)n1Cc1ccccc1 | - | 0.45 µg/mL
OCC(O)C(O)C(O)c1nnc2sc(-c3ccc(Cl)c(Cl)c3)nn12 | - | 97.17 µg/mL
CC(C)CN(C[C@@H](O)[C@H](Cc1ccccc1)NC(=O)OCc1cncs1)S(=O)(=O)c1ccc2nc[nH]c2c1 | - | >100 µM
CCc1nc([N+](=O)[O-])c(N2CCN(C(=O)CCc3c[nH]c4ccccc34)CC2)n1Cc1ccccc1 | - | 19.73 µg/mL
CN1C/C(=C\c2ccc([N+](=O)[O-])c(O)c2)C(=O)/C(=C/c2ccc([N+](=O)[O-])c(O)c2)C1 | MTT | 1.9 µM
CCOCn1c(Cc2cc(C(F)(F)F)cc(C(F)(F)F)c2)c(C(C)C)c(=O)[nH]c1=O | - | >100 µM
Cc1cccc(C)c1OCC(=O)N[C@@H](Cc1ccccc1)[C@H](O)CN(CC(C)C)S(=O)(=O)c1ccc2ncn(C)c2c1 | - | 57.5 µM
C=C1CN(S(=O)(=O)c2ccc(CBr)cc2)CCCN(Cc2ccccc2)CCCN(S(=O)(=O)c2ccc(CBr)cc2)C1 | - | >75 µM
CCc1nc([N+](=O)[O-])c(N2CCN(C(=O)c3ccc([N+](=O)[O-])cc3)CC2)n1Cc1ccccc1 | - | 98.23 µg/mL
Nc1ccn([C@@H]2CO[C@H](CO)[C@@H](O)C2)c(=O)n1 | - | 1.1 µg/mL
C=C1CN(S(=O)(=O)c2ccc(C)cc2)CCCN(C(=O)OCC)CCCN(S(=O)(=O)c2ccc(C)cc2)C1 | - | >75 µM
CS(=O)(=O)c1ccc(NC(=O)COc2cc(Cl)cc(Oc3cc(Cl)cc(C#N)c3)c2)c(Cl)c1 | microscopy | >20 µM
Cc1cccc(C)c1OCC(=O)N[C@@H](Cc1ccccc1)[C@H](O)CN(CC(C)C)S(=O)(=O)c1ccc2nc(N)n(C)c2c1 | - | >100 µM
N#Cc1cc(Cl)cc(Oc2cc(OCc3[nH]nc4cccnc34)ccc2Cl)c1 | - | >8.3 µM
CC[C@@H](NS(=O)(=O)c1ccc(OC)cc1)c1n[nH]c(=S)o1 | - | 125 µg/mL
CC(C)Cc1c(OC2CCCC2)c2cc(Cl)ccc2[nH]c1=O | - | 59.2 µM
CC(=O)NC1C(O)OC(CO)C(O)C1OC1OC(C(=O)[O-])C(OC2OC(CO)C(O)C(OC3OC(C(=O)[O-])C(O)C(O)C3O)C2NC(C)=O)C(O)C1O.[Na+].[Na+] | - | >250 µg/mL
Cc1cccc(Nc2ccccc2C(=O)Nc2ccc(C(=O)/C=C/c3ccc(Br)cc3)cc2)c1C | MTT / absorbance | 12.68 µM
CCOC(=O)C1C/C(=C\c2cc(O)c(O)c(O)c2)C(=O)/C(=C/c2cc(O)c(O)c(O)c2)C1 | MTT | 67 µM
Cc1c(Oc2ccnc(Nc3ccc(C#N)cc3)n2)ccc2ccccc12 | MTT | >70.94 µM
[N-]=[N+]=N[C@H]1C[C@@H](CO)O[C@H]1n1cnc2c(NC3CCCCC3)ncnc21 | - | >125 µg/mL
CCC(C)C#COc1c(C(C)C)c(=O)[nH]c2ccc(F)cc12 | - | 66.7 µM
CC(C)CN(C[C@@H](O)[C@H](Cc1ccccc1)NC(=O)OCc1cncs1)S(=O)(=O)c1ccc2nc(N)[nH]c2c1 | - | >100 µM
CCc1nc([N+](=O)[O-])c(N2CCN(C(C)=O)CC2)n1Cc1ccccc1 | - | ≥63.1 µg/mL
N#Cc1cc(Cl)cc(Oc2cc(OCc3[nH]nc4ncccc34)ccc2Cl)c1 | microscopy | >20 µM
C=C1CN(S(=O)(=O)c2ccc(C)cc2)CCCN(CC(C)C)CCCN(S(=O)(=O)c2ccc(C)cc2)C1 | - | >75 µM
C#CCOCn1c(Cc2cccc(F)c2)c(CC)c(=O)[nH]c1=O | - | >100 µM
C=C1CN(S(=O)(=O)c2ccc(C)cc2)CCCN(CC2CC=CCC2)CCCN(S(=O)(=O)c2ccc(C)cc2)C1 | - | 32.7 µM
CCc1c(OC#CC2CC2)c2cc(F)ccc2[nH]c1=O | - | 10 µM
N#Cc1cc(Cl)cc(Oc2cc(OCC(=O)Nc3ccc(S(N)(=O)=O)cc3Cl)ccc2Cl)c1 | microscopy | >20 µM
COC(=O)Nc1nc2ccc(S(=O)(=O)N(CC(C)C)C[C@@H](O)[C@H](Cc3ccccc3)NC(=O)c3ccc(O)cc3C)cc2[nH]1 | - | 50.1 µM
CN(C)c1ncnc2c1ncn2[C@@H]1O[C@H](CO)C[C@@H]1N=[N+]=[N-] | - | 115.1 µg/mL
O=c1[nH]c(=O)n([C@@H]2CO[C@H](CO)[C@@H](O)C2)cc1I | - | >100 µg/mL
Cc1ccc(-c2nnc(-c3ccc(N)cc3)o2)cc1 | - | 35 µg/mL
CN1CCn2c(nc(C(=O)NCc3ccc(F)cc3S(C)(=O)=O)c(O)c2=O)C1(C)C | microscopy | >1 µM
CCCc1c(SCC2CCC2)c2cc(Cl)ccc2[nH]c1=O | - | 32.9 µM
COc1ccc(-c2nnc(-c3ccc(N)cc3)o2)cc1 | - | 116 µg/mL

Repeating the final 12 entries:

SMILES | read by | value
C=C1CN(S(=O)(=O)c2ccc(C)cc2)CCCN(CC(C)C)CCCN(S(=O)(=O)c2ccc(C)cc2)C1 | - | >75 µM
C#CCOCn1c(Cc2cccc(F)c2)c(CC)c(=O)[nH]c1=O | - | >100 µM
C=C1CN(S(=O)(=O)c2ccc(C)cc2)CCCN(CC2CC=CCC2)CCCN(S(=O)(=O)c2ccc(C)cc2)C1 | - | 32.7 µM
CCc1c(OC#CC2CC2)c2cc(F)ccc2[nH]c1=O | - | 10 µM
N#Cc1cc(Cl)cc(Oc2cc(OCC(=O)Nc3ccc(S(N)(=O)=O)cc3Cl)ccc2Cl)c1 | microscopy | >20 µM
COC(=O)Nc1nc2ccc(S(=O)(=O)N(CC(C)C)C[C@@H](O)[C@H](Cc3ccccc3)NC(=O)c3ccc(O)cc3C)cc2[nH]1 | - | 50.1 µM
CN(C)c1ncnc2c1ncn2[C@@H]1O[C@H](CO)C[C@@H]1N=[N+]=[N-] | - | 115.1 µg/mL
O=c1[nH]c(=O)n([C@@H]2CO[C@H](CO)[C@@H](O)C2)cc1I | - | >100 µg/mL
Cc1ccc(-c2nnc(-c3ccc(N)cc3)o2)cc1 | - | 35 µg/mL
CN1CCn2c(nc(C(=O)NCc3ccc(F)cc3S(C)(=O)=O)c(O)c2=O)C1(C)C | microscopy | >1 µM
CCCc1c(SCC2CCC2)c2cc(Cl)ccc2[nH]c1=O | - | 32.9 µM
COc1ccc(-c2nnc(-c3ccc(N)cc3)o2)cc1 | - | 116 µg/mL